Pooled drug test results. Numbers come from NIAID ChemDB, via PubChem.

Common to all: whole-cell or culture tests; species: HIV-1; read by: p24; read-out: EC95

Blank or dashed fields: not listed here. ECn is the concentration giving n% inhibition of infection, replication or growth. Conditions beyond the fields shown may differ between rows.

| smiles | strain or isolate | changes | cells | setting | result |
|---|---|---|---|---|---|
| Cc1cc(C)c(-n2nnnc2SCC(=O)Nc2ccc(C)c([N+](=O)[O-])c2)c(C)c1 | - | - | MT-4 | - | <10 µM |
| O=C(N[C@H]1c2ccccc2OC[C@H]1O)[C@H](Cc1cccnc1)C[C@H](O)CN1CCN(Cc2ccn(-c3cc(Cl)c(Cl)c(Cl)c3)c2)C[C@H]1C(=O)NCC(F)(F)F | V-18C Clinical isolate | PR-L10I M36I N37D M46I R57K L63P A71V G73S I84V L90M I93L | MT-4 | - | 0.015 µM |
| CCc1cc(NCc2nc3c(C)ccc(C)c3o2)c(=O)[nH]c1C | IIIB | - | MT-4 | - | 0.025 µM |
| O=C1N(Cc2ccc(CO)cc2)[C@H](Cc2ccccc2)[C@H](O)[C@@H](O)[C@@H](Cc2ccccc2)N1Cc1ccc(CO)cc1 | NL4-3 | PR-V82T | MT-4 | - | 0.1 µM |
| CC(C)(c1ncc(-c2ccc(F)cc2)o1)N1CCN(C[C@@H](O)C[C@@H](Cc2nnco2)C(=O)N[C@H]2c3ccccc3OC[C@H]2O)[C@H](C(=O)NCC(F)(F)F)C1 | Q-60 Clinical isolate | PR-L10I N37S R41K M46I I54V I62V L63P A71V V77I V82A L90M I93L | MT-4 | - | 0.031 µM |
| CCc1cc(NCc2nc3c(C)ccc(C)c3o2)c(=O)[nH]c1C | IIIB | - | PBL | - | 0.1 µM |
| COc1ncccc1NC(=O)CSc1nnnn1-c1c(C)cc(C)cc1C | - | - | MT-4 | - | <10 µM |
| O=C(N[C@H]1c2ccccc2OCC1O)[C@H](Cc1cccnc1)C[C@H](O)CN1CCN(Cc2ccc(-c3ccccc3)o2)C[C@H]1C(=O)NCC(F)(F)F | NL4-3 WT | - | MT-4 | - | ≤0.008 µM |
| Cc1nnc(C[C@H](C[C@H](O)CN2CCN(C(C)(C)c3ncc(-c4ccc(Cl)cc4)o3)C[C@H]2C(=O)NCC(F)(F)F)C(=O)N[C@H]2c3ccccc3OC[C@H]2O)o1 | NL4-3 WT | - | MT-4 | - | 0.25 µM |
| CC(C)(C)NC(=O)[C@@H]1C[C@@H]2CCCC[C@@H]2CN1C[C@@H](O)[C@H](Cc1ccccc1)NC(=O)[C@H](CC(N)=O)NC(=O)c1ccc2ccccc2n1 | NL4-3 | PR-L10R | MT-4 | - | 0.05 µM |
| CCc1cc(NCc2nc3c(Cl)ccc(Cl)c3o2)c(=O)[nH]c1C | A018A/H112-2 | - | CEM | clinical isolate | 0.25 µM |
| O=C(N[C@H]1c2ccccc2OC[C@H]1O)[C@H](Cc1nnc(-c2ccccc2)o1)C[C@H](O)CN1CCN(Cc2ccc(-c3ccc(Cl)cc3)o2)C[C@H]1C(=O)NCC(F)(F)F | Q-60 Clinical isolate | PR-L10I N37S R41K M46I I54V I62V L63P A71V V77I V82A L90M I93L | MT-4 | - | 0.063 µM |
| Cc1ccccc1CNC(=O)[C@H]1N(C[C@@H](O)C[C@@H](Cc2ccccc2)C(=O)N[C@H]2c3ccccc3OC[C@H]2O)CSC1(C)C | - | PR-V18C | MT-4 | - | 1 µM |
| O=C(N[C@H]1c2ccccc2OC[C@H]1O)[C@H](Cc1cccnc1)C[C@H](O)CN1CCN(Cc2ccn(-c3cccc(Cl)c3)c2)C[C@H]1C(=O)NCC(F)(F)F | Q-60C Clinical isolate | PR-L10I N37S R41K M46I I54V I62V L63P A71V V77I V82A L90M I93L | MT-4 | - | ≤0.008 µM |
| CC(C)(c1ncc(-c2ccc(Cl)cc2)o1)N1CCN(C[C@@H](O)C[C@@H](Cc2nnco2)C(=O)N[C@H]2c3ccccc3OC[C@H]2O)[C@H](C(=O)NCC(F)(F)F)C1 | V-18 Clinical isolate | PR-L10I M36I N37D M46I R57K L63P A71V G73S I84V L90M I93L | MT-4 | - | 0.063 µM |
| O=C(N[C@H]1c2ccccc2OC[C@H]1O)[C@H](Cc1cccnc1)C[C@H](O)CN1CCN(Cc2ccn(-c3ccc(Cl)cc3)c2)C[C@H]1C(=O)NCC(F)(F)F | Q-60C Clinical isolate | PR-L10I N37S R41K M46I I54V I62V L63P A71V V77I V82A L90M I93L | MT-4 | - | ≤0.008 µM |
| Cc1nnc(C[C@H](C[C@H](O)CN2CCN(C(C)(C)c3ncc(-c4ccc(F)cc4)o3)C[C@H]2C(=O)NCC(F)(F)F)C(=O)N[C@H]2c3ccccc3OC[C@H]2O)o1 | Q-60 Clinical isolate | PR-L10I N37S R41K M46I I54V I62V L63P A71V V77I V82A L90M I93L | MT-4 | - | 0.031 µM |
| O=C(N[C@H]1c2ccccc2OC[C@H]1O)[C@H](Cc1cccnc1)C[C@H](O)CN1CCN(Cc2ccn(-c3ccc(F)c(F)c3F)c2)C[C@H]1C(=O)NCC(F)(F)F | V-18C Clinical isolate | PR-L10I M36I N37D M46I R57K L63P A71V G73S I84V L90M I93L | MT-4 | - | ≤0.008 µM |
| Cc1cc(C)c(-n2nnnc2SCC(=O)Nc2ccc(Cl)cc2[N+](=O)[O-])c(C)c1 | - | - | MT-4 | - | <10 µM |
| CCc1cc(NCc2nc3ccccc3o2)c(=O)[nH]c1C | rA17 | - | MT-4 | - | 200 µM |
| CCCc1nnc(C[C@H](C[C@H](O)CN2CCN(C(C)(C)c3ncc(-c4ccc(Cl)cc4)o3)C[C@H]2C(=O)NCC(F)(F)F)C(=O)N[C@H]2c3ccccc3OC[C@H]2O)o1 | Q-60 Clinical isolate | PR-L10I N37S R41K M46I I54V I62V L63P A71V V77I V82A L90M I93L | MT-4 | - | ≤0.008 µM |
| Cc1cc(C)c(-n2nnnc2SCC(=O)Nc2cccc3ncccc23)c(C)c1 | - | - | MT-4 | - | <10 µM |
| O=C(N[C@H]1c2ccccc2OC[C@H]1O)[C@H](Cc1cccnc1)C[C@H](O)CN1CCN(Cc2ccn(-c3cccc(C(F)(F)F)c3)c2)C[C@H]1C(=O)NCC(F)(F)F | K-60C Clinical isolate | PR-L10I M46I I54V Q58E L63P I64V V77I V82F I84V L90M I93L | MT-4 | - | 0.031 µM |
| CC(C)(c1ncc(-c2ccc(Cl)cc2)o1)N1CCN(C[C@@H](O)C[C@@H](Cc2nnc(-c3ccccc3)o2)C(=O)N[C@H]2c3ccccc3OC[C@H]2O)[C@H](C(=O)NCC(F)(F)F)C1 | NL4-3 WT | - | MT-4 | - | ≤0.008 µM |
| O=c1[nH]cnc2c1ncn2[C@H]1CC[C@@H](CO)O1 | rHXB2 | - | MT-4 | - | 25 µM |
| Cc1cccc(-n2ccc(CN3CCN(C[C@@H](O)C[C@@H](Cc4cccnc4)C(=O)N[C@H]4c5ccccc5OC[C@H]4O)[C@H](C(=O)NCC(F)(F)F)C3)c2)c1 | V-18C Clinical isolate | PR-L10I M36I N37D M46I R57K L63P A71V G73S I84V L90M I93L | MT-4 | - | ≤0.008 µM |

Repeating the final 2 entries:

smiles	strain or isolate	changes	cells	setting	result
O=c1[nH]cnc2c1ncn2[C@H]1CC[C@@H](CO)O1	rHXB2	-	MT-4	-	25 µM
Cc1cccc(-n2ccc(CN3CCN(C[C@@H](O)C[C@@H](Cc4cccnc4)C(=O)N[C@H]4c5ccccc5OC[C@H]4O)[C@H](C(=O)NCC(F)(F)F)C3)c2)c1	V-18C Clinical isolate	PR-L10I M36I N37D M46I R57K L63P A71V G73S I84V L90M I93L	MT-4	-	≤0.008 µM